A mixed list of measured activities; the numbers were collected in NIAID ChemDB.

Common to all: whole-cell or culture tests; organism: HIV-1

Conditions beyond the fields shown may differ between rows. An empty or dashed field is not shown. ECn is the concentration giving n% inhibition of infection, replication or growth.

| smiles | method | mutations | strain or isolate | cells | read-out | result |
|---|---|---|---|---|---|---|
| O=C1N(Cc2ccc3[nH]c(=O)[nH]c3c2)[C@H](Cc2ccccc2)[C@H](O)[C@@H](O)[C@@H](Cc2ccccc2)N1Cc1ccc2[nH]c(=O)[nH]c2c1 | hybridisation |  | RF | MT-2 | EC90 | >65 µM |
| O=C(NC1CCCC1)C1C(=O)N(O)C(=O)c2ccccc21 | MTT |  |  | MT-4 | EC50 | 27.56 µM |
| COC1CCC(OC2CC(C)(C3CCC(C4OC(C)(O)C(C)CC4C)O3)OC2C2(C)CC(C)C3(OC(CC4OC(O)(C(C)C(=O)O)C(C)C(OC)C4OC)CC(OC)C3C)O2)OC1C | RT activity |  | IIIB | H9 | EC50 | 0.64 µg/mL |
| N=c1ncn([C@H]2CC[C@@H](CO)O2)c2nc[nH]c12 |  |  |  | MT-4 | EC50 | 264 µM |
| Cc1cn([C@H]2C=C[C@@H](CO)O2)c(=O)[nH]c1=O | MTT |  | IIIB | MT-2 | EC50 | 4.2 µM |
| O=C1Nc2ccc(Cl)cc2[C@@](C#CC2CC2)(C(F)(F)F)O1 | luciferase |  | NL4-3 | Jurkat cells | EC90 | 0.0034 µM |
| Nc1ccn([C@@H]2CO[C@H](CO)S2)c(=O)n1 | p24 | RT-M41L L74V V106A T215Y | HXB2 | C8166 | EC50 | 8 µM |
| O=C(NCc1ccc(F)cc1)C1C(=O)N(O)C(=O)c2cc(Cl)ccc21 | MTT |  |  | MT-4 | EC50 | 1.19 µM |
| Cc1cn([C@H]2C[C@H](N=[N+]=[N-])[C@@H](CO)O2)c(=O)[nH]c1=O | cytopathic effect / MTT |  | IIIB | MT-2 | EC50 | 0.036 µM |
| Fc1cccc(F)c1C1SCc2nc3ccccc3n21 | cytopathic effect / XTT |  | IIIB | CEM + CEM-SS | EC50 | 0.98 µM |
| Nc1ccn([C@H]2CC[C@@H](CO)O2)c(=O)n1 | cytopathic effect / MTT |  | IIIB | MT-2 | EC50 | 0.6 µM |
| COC(=O)[C@H](C)NP(=O)(OC[C@H]1O[C@@H](n2cc(C)c(=O)[nH]c2=O)C[C@@H]1N=[N+]=[N-])Oc1ccccc1 | RT activity |  | IIIB | PBMC | EC50 | 0.1 µM |
| Cc1cn([C@H]2C[C@H](N=[N+]=[N-])[C@@H](CO)O2)c(=O)[nH]c1=O | luciferase |  | NL4-3-Luc VSV pseudotyped | Jurkat cells | EC50 | <10 µM |
| CNc1n[nH]c2ccc(CN3C(=O)N(Cc4ccc5[nH]nc(NC)c5c4)[C@H](Cc4ccccc4)[C@H](O)[C@@H](O)[C@H]3Cc3ccccc3)cc12 | hybridisation |  | RF | MT-2 | EC50 | <0.279 µM |
| Cc1cn([C@H]2C[C@H](N=[N+]=[N-])[C@@H](CO)O2)c(=O)[nH]c1=O | cytopathic effect / MTT |  | IIIB | MT-4 | EC50 | 0.0041 µM |
| FC(F)(F)c1ccnc2c1NC(=NC1CC1)c1cccnc1N2C1CC1 | cytopathic effect / MTT |  | IIIB | MT-4 | EC90 | >200 µM |
| CC(C)Nc1n[nH]c2ccc(CN3C(=O)N(Cc4ccc5[nH]nc(NC(C)C)c5c4)[C@H](Cc4ccccc4)[C@H](O)[C@@H](O)[C@H]3Cc3ccccc3)cc12 | hybridisation |  | RF | MT-2 | EC50 | <0.024 µM |
| Cc1nnc(C(C)C)n1C1C[C@H]2CC[C@@H](C1)N2CC[C@H](NC(=O)C1CCC(F)(F)CC1)c1ccccc1 | luciferase |  | JR-FL | TZM-bl | EC50 | 0.00598 µM |
| O=C(CSc1nncnc1-c1ccccc1Cl)Nc1ccccc1Br | MTT |  | RES056 | MT-4 | EC50 | >55 µM |
| O=C1CC(O)(Cc2ccccc2)C(O)C(O)(Cc2ccccc2)C1 |  |  | IIIB | MOLT-4 | EC50 | <100 µM |
| O=C(CSc1nncnc1-c1ccccc1Cl)Nc1cccnc1Cl | MTT |  | RES056 | MT-4 | EC50 | 23 µM |
| CC[C@@]1([C@@H]2O[C@@H]([C@H]3O[C@@](O)(CO)[C@H](C)C[C@@H]3C)C[C@@H]2C)CC[C@H]([C@]2(C)CC[C@]3(C[C@H](O)[C@@H](C)[C@@H]([C@@H](C)[C@@H](OC)[C@H](C)C(=O)O)O3)O2)O1 | RT activity |  | IIIB | H9 | EC50 | 4.22 µg/mL |
| C#CC1(CO)CCC(n2ccc(N)nc2=O)O1 | cytopathic effect / MTT |  | LAI | MT-4 | EC50 | >10 µM |
| CCCCC/C=C\C/C=C\C/C=C\C/C=C\CCCC(=O)NCCO | luciferase |  | NL4-3-Luc VSV pseudotyped | Jurkat cells | EC50 | >10 µM |
| CCCNc1n[nH]c2ccc(CN3C(=O)N(Cc4ccc5[nH]nc(NCCC)c5c4)[C@H](Cc4ccccc4)[C@H](O)[C@@H](O)[C@H]3Cc3ccccc3)cc12 | hybridisation |  | RF | MT-2 | EC50 | <0.04 µM |
| Cc1cn([C@H]2C[C@H](N=[N+]=[N-])[C@@H](CO)O2)c(=O)[nH]c1=O | MTT |  | RES056 | MT-4 | EC50 | 0.015 µM |
| Cc1cn([C@H]2C[C@H](N=[N+]=[N-])[C@@H](COP(=O)(OCCSC(=O)C(C)(C)C)OCCSC(=O)C(C)(C)C)O2)c(=O)[nH]c1=O | cytopathic effect / MTT |  | IIIB | MT-4 | EC50 | 0.81 µM |
| NS(=O)(=O)c1ccc(NC(=O)c2ccccc2SSc2ccccc2C(=O)Nc2ccc(S(N)(=O)=O)cc2)cc1 | cytopathic effect / XTT |  | IIIB | CEM + CEM-SS | EC50 | 0.72 µM |
| N#Cc1ccc(Nc2nc(Oc3c(Cl)cc(Cl)cc3Cl)ncc2[N+](=O)[O-])cc1 | MTT |  | IIIB | MT-4 | EC50 | 7.4 µM |
| Cc1cn([C@H]2C[C@H](N=[N+]=[N-])[C@@H](CO)O2)c(=O)[nH]c1=O | MTT |  | IIIB | MT-4 | EC50 | 0.021 µM |
| CC(=O)N[C@@H](CS)C(=O)O | MTT / p24 |  |  | U-937/HIV-1 + U-937 | EC50 | >200 µM |
| CC[C@@H]1O[C@@H]([C@]2(C)C[C@@H](C)[C@](O)([C@]3(C)CC[C@@H]([C@@H](O)[C@]4(O)O[C@H](C[C@@]5(O)O[C@@H]([C@@H](C)[C@H](O)C[C@@H]6O[C@H]([C@@H](C)C(=O)O)[C@@H](C)C[C@H]6C)CC[C@@H]5C)[C@@H](C)C[C@H]4C)O3)O2)CC[C@@]1(C)O | RT activity |  | IIIB | U-937 | EC50 | 0.12 µg/mL |
| Cc1c(C(=O)NN2CCCCC2)nn(-c2ccc(Cl)cc2Cl)c1-c1ccc(Cl)cc1 | luciferase |  | NL4-3-Luc VSV pseudotyped | Jurkat cells | EC50 | >5 µM |
| COc1ccc(-c2oc3c4c(cc(O)c3c(=O)c2O)OC(C)(C)CC4)cc1 | PCR |  | BK132 | PBMC | EC50 | 21.1 µM |
| Nc1nc(NC2CC2)c2ncn([C@H]3C=C[C@@H](CO)C3)c2n1 | luciferase |  | NL4-3 | Jurkat cells | EC90 | 123 µM |
| Cc1cc(C)c(Nc2ccnc(Nc3ccc(C#N)cc3)n2)c(C)c1 | syncytia |  | IIIB | MT-4 | EC50 | 0.001 µM |
| COC1CCC(OC2CC(C3OC(O)(CO)C(C)CC3C)OC2C2(C)CCC(C3(C)CCC4(CC(O)C(C)C(C(C)C5OC(O)(CC(=O)O)C(C)C(OC6CCC(OC)C(C)O6)C5OC)O4)O3)O2)OC1C | RT activity |  | IIIB | H9 | EC50 | >100 µg/mL |
| Cc1cc(C#N)cc(C)c1Oc1ncc([N+](=O)[O-])c(Nc2ccc(C#N)cc2)n1 | MTT |  | RES056 | MT-4 | EC50 | ≥10.3 µM |
| CC(C)(C)NC(=O)[C@@H]1CN(Cc2cccnc2)CCN1C[C@@H](O)C[C@@H](Cc1ccccc1)C(=O)N[C@H]1c2ccccc2C[C@H]1O | luciferase |  | NL4-3 | Jurkat cells | EC50 | 0.0475 µM |
| CC(C)Nc1cccnc1N1CCN(C(=O)c2cc3cc(NS(C)(=O)=O)ccc3[nH]2)CC1 | MTT |  | IIIB | MT-4 | EC50 | 0.507 µM |
| CCc1c(C(=O)c2cc(C)cc(C)c2)n(CC2CC=CC2)c(=O)[nH]c1=O | cytopathic effect / XTT |  | IIIB | MT-2 | EC50 | 0.001 µM |
| CCCc1cc(=O)oc2c3c(c4c(c12)OC(C)(C)C=C4)OC(C)C(C)C3O | cytopathic effect / XTT |  | IIIB | CEM + CEM-SS | EC50 | 0.062 µM |
| Cc1ccc(CNC(=O)C2C(=O)N(O)C(=O)c3ccccc32)cc1 | MTT |  |  | MT-4 | EC50 | 2.54 µM |
| O=C1Nc2cccnc2N(C2CC2)c2ncccc21 | cytopathic effect / MTT |  | IIIB | MT-4 | EC90 | 4 µM |
| Cc1ccc(NC(=O)CSc2nncnc2-c2ccccc2Cl)c(Br)c1 | MTT |  | IIIB | MT-4 | EC50 | 0.178 µM |

Again, the opening 4 rows:

smiles | method | mutations | strain or isolate | cells | read-out | result
O=C1N(Cc2ccc3[nH]c(=O)[nH]c3c2)[C@H](Cc2ccccc2)[C@H](O)[C@@H](O)[C@@H](Cc2ccccc2)N1Cc1ccc2[nH]c(=O)[nH]c2c1 | hybridisation |  | RF | MT-2 | EC90 | >65 µM
O=C(NC1CCCC1)C1C(=O)N(O)C(=O)c2ccccc21 | MTT |  |  | MT-4 | EC50 | 27.56 µM
COC1CCC(OC2CC(C)(C3CCC(C4OC(C)(O)C(C)CC4C)O3)OC2C2(C)CC(C)C3(OC(CC4OC(O)(C(C)C(=O)O)C(C)C(OC)C4OC)CC(OC)C3C)O2)OC1C | RT activity |  | IIIB | H9 | EC50 | 0.64 µg/mL
N=c1ncn([C@H]2CC[C@@H](CO)O2)c2nc[nH]c12 |  |  |  | MT-4 | EC50 | 264 µM